We go through two molecules from publication PMC2765250 (Vaccine, 2009).

The test concerns the target purified rhesus macaque MHC class I molecule Mamu-B*17 with human beta2-microglobulin (rhesus macaque | human). Description: radioligand binding.

A word on the IC50: it is the concentration that inhibits the measured activity by half. On to QTIVFIWFI [VACV-WR peptide 9NP (QTIVFIWFI), ORF A14.5L], for which the IC50 stood at 15.5 µM.

Consider KTSTLIFFV [VACV-WR peptide 75NP (KTSTLIFFV), ORF H2R], for which the IC50 is 13.3 µM.
